Experimental data taken from patent US20030198648.
For at least one entry, the source does not settle the construct or the ends of the probe.

Target: HIV-1 NCp7 (nucleocapsid p7) (HIV-1) (UniProt P12493)
Experiment: binding assay
Conditions: plate-immobilized NCp7, streptavidin-HRP detection; 50 mM Tris pH 7.5, 50 mM KCl, 10 mM MgCl2, RT; BSA block; sensitive to azodicarbonamide and DIBA-1; purified recombinant protein; label: biotin; single-stranded DNA

GGACTAGCGGAGGCTAGTCC [biotinylated SL3]: binds.
